Pooled drug test results. Numbers come from NIAID ChemDB, via PubChem.

All rows: whole-cell or culture tests; organism: Vesicular stomatitis virus; measure: EC50

Neighbouring rows are from separate reports.

SMILES | strain | cells | method | value
CCCCc1cn([C@@H]2O[C@H](COP(=O)(O)O)[C@@H](O)[C@H]2O)c(=O)nc1N |  |  |  | >400 µg/mL
Cc1[nH]c2nc3c(ncn3COCCO[Si](C)(C)C(C)(C)C)c(=O)n2c1C(c1ccccc1)(c1ccccc1)c1ccccc1 |  |  | cytopathic effect | >10 µg/mL
Nc1ncnc2c1ncn2[C@@H]1C=C(CO)[C@@H](O)[C@H]1O |  | HeLa | cytopathic effect | 2 µg/mL
CO[C@H]1[C@H](OC)[C@@H](CO)O[C@H]1n1cnc2c(N)ncnc21 |  | PRK | cytopathic effect | >100 µg/mL
COc1cc(Cc2cnc(-n3c(-c4ccccc4)nc4ccc(Br)cc4c3=O)nc2N)cc(OC)c1OC |  | HeLa | cytopathic effect | >16 µg/mL
CCOC(=O)c1ccc(OCCCCc2cc(C=O)n(C)c2)cc1 |  | VERO | plaque count | >55 µM
CCOc1cc(O)c(C(=O)/C=C/c2ccc(OC)cc2)c(OC)c1 |  | HeLa | cytopathic effect | >3 µg/mL
O=c1c2ncn(COCCO)c2nc2[nH]c(-c3ccccc3)c(-c3ccc(C(c4ccccc4)c4ccccc4)cc3)n12 |  |  | cytopathic effect | >16 µg/mL
O=c1[nH]c(=O)n(COCCO)cc1[N+](=O)[O-] |  | PRK | cytopathic effect | >400 µg/mL
Nc1nc2c(ncn2[C@@H]2O[C@H](CO)[C@@H](O)[C@H]2N)c(=O)[nH]1 |  | PRK | cytopathic effect | >200 µg/mL
CCCCCCc1cn([C@@H]2OC3COP(=O)(O)OC3[C@H]2O)c(=O)nc1N |  |  |  | >400 µg/mL
Nc1nc(-n2c(-c3ccccc3)nc3ccc(Br)cc3c2=O)nnc1-c1cccc(Cl)c1Cl |  | HeLa | cytopathic effect | >16 µg/mL
Cc1cn([C@H]2OC[C@@H](CO)C2F)c(=O)[nH]c1=O |  | HeLa | cytopathic effect | >80 µg/mL
Nc1ccn([C@@H]2O[C@H](CO)[C@@H](O)[C@H]2N)c(=O)n1 |  | PRK | cytopathic effect | 150 µg/mL
O=c1[nH]c(=O)n(COCCO)cc1/C=C/Br |  | PRK | cytopathic effect | >400 µg/mL
Cc1cn([C@H]2C[C@H](N=[N+]=[N-])[C@@H](CO)O2)c(=O)[nH]c1=O |  | PRK | cytopathic effect | >200 µg/mL
CNc1nc2c(=O)[nH]c(N)nc2n1COCCO |  | PRK | cytopathic effect | >400 µg/mL
CCc1nc(-n2c(-c3ccccc3)nc3ccc(Br)cc3c2=O)nc(N)c1-c1ccc(Cl)cc1 |  | HeLa | cytopathic effect | >16 µg/mL
O=c1[nH]c(=O)n([C@@H]2OC3COP(=O)(O)OC3[C@H]2O)cc1I |  | PRK | cytopathic effect | >400 µg/mL
Nc1ncnc2c1ncn2C[C@H](O)CO |  | HeLa | cytopathic effect | 70 µg/mL
OC[C@H]1O[C@@H](c2cc(C#CI)c(F)cc2F)C[C@@H]1O |  | E6SM | cytopathic effect | >400 µg/mL
COc1ccc(-c2cn3c(=O)c4ncn(COC(CO)CO)c4nc3[nH]2)cc1 |  |  | cytopathic effect | >80 µg/mL
CC(C)c1cn([C@@H]2OC3COP(=O)(O)OC3[C@H]2O)c(=O)nc1N |  |  |  | >400 µg/mL
O=c1[nH]c(=O)n(COCCO)cc1I |  | PRK | cytopathic effect | >400 µg/mL
N#Cc1cncc([C@@H]2O[C@H](CO)[C@H](O)[C@@H]2O)c1 |  | E6SM | cytopathic effect | ≥100 µg/mL
C=Cc1cc([C@H]2C[C@H](O)[C@@H](CO)O2)c(F)cc1F |  | E6SM | cytopathic effect | >400 µg/mL
CC(=O)OCCOCn1cnc2c(Cl)ncnc21 |  | PRK | cytopathic effect | >400 µg/mL
N#Cc1cncc([C@H]2O[C@H](CO)[C@H](O)[C@@H]2O)c1 |  | E6SM | cytopathic effect | ≥100 µg/mL
Cc1cn([C@@H]2O[C@H](COP(=O)(O)O)[C@@H](O)[C@H]2O)c(=O)nc1N |  |  |  | >400 µg/mL
COC(=O)[C@H]1[C@@H]2C[C@@H](O[C@@H]3O[C@H](C)[C@@H](O)[C@H](N)[C@@H]3O)/C=C/C=C/C=C/C=C/C=C/C=C/C=C/[C@H](C)[C@@H](O)[C@H](C)[C@H](C)OC(=O)C[C@H](O)C[C@H](O)[C@@H](O)CC[C@H](O)C[C@H](O)C[C@](O)(C[C@@H]1O)O2 |  | HFF | plaque count | 1.3 µg/mL
Cc1cn([C@@H]2OC[C@H](CO)[C@H]2N=[N+]=[N-])c(=O)[nH]c1=O |  | HeLa | cytopathic effect | >80 µg/mL
O=c1c2ncn(COCCO)c2[nH]c2ncc(CO)n12 |  |  | cytopathic effect | >3.2 µg/mL
OC[C@H]1O[C@@H](c2cc(/C=C/Br)c(F)cc2F)C[C@@H]1O |  | E6SM | cytopathic effect | >400 µg/mL
Nc1ccn([C@@H]2OC[C@H](CO)[C@H]2O)c(=O)n1 |  | HeLa | cytopathic effect | >80 µg/mL
Nc1nc2ncn(O)c2c(=O)[nH]1 | Indiana | BHK | plaque count | 27.9 µg/mL
Nc1nc(Cl)c2ncn(COCCO)c2n1 |  | PRK | cytopathic effect | >400 µg/mL

Again, the opening 4 rows:

| SMILES | strain | cells | method | value |
|---|---|---|---|---|
| CCCCc1cn([C@@H]2O[C@H](COP(=O)(O)O)[C@@H](O)[C@H]2O)c(=O)nc1N |  |  |  | >400 µg/mL |
| Cc1[nH]c2nc3c(ncn3COCCO[Si](C)(C)C(C)(C)C)c(=O)n2c1C(c1ccccc1)(c1ccccc1)c1ccccc1 |  |  | cytopathic effect | >10 µg/mL |
| Nc1ncnc2c1ncn2[C@@H]1C=C(CO)[C@@H](O)[C@H]1O |  | HeLa | cytopathic effect | 2 µg/mL |
| CO[C@H]1[C@H](OC)[C@@H](CO)O[C@H]1n1cnc2c(N)ncnc21 |  | PRK | cytopathic effect | >100 µg/mL |

ECn is the concentration giving n% inhibition of infection, replication or growth. Blank or dashed fields: not listed here.